Literature values as cited in patent publication US20060057614A1 (priority 2004, published 2006).

Sequences of proteins named here, by UniProt entry; tags and fusion partners are left off. A change or cut given only in a name is not applied to a line headed by its entry.
UniProt P36544: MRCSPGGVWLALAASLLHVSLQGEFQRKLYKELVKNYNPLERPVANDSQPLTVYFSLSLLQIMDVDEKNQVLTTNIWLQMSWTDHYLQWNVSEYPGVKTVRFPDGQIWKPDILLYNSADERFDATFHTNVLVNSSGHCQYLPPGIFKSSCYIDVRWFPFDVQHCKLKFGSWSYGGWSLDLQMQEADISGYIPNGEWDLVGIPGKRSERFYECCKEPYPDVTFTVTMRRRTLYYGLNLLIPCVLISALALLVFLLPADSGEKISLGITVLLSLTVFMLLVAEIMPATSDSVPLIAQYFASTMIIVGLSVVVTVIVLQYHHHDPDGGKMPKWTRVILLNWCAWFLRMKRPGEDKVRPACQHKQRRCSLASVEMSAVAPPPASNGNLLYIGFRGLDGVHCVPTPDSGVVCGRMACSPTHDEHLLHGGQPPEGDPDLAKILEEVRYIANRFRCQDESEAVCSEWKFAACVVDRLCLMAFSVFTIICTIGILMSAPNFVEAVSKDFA
UniProt P04775: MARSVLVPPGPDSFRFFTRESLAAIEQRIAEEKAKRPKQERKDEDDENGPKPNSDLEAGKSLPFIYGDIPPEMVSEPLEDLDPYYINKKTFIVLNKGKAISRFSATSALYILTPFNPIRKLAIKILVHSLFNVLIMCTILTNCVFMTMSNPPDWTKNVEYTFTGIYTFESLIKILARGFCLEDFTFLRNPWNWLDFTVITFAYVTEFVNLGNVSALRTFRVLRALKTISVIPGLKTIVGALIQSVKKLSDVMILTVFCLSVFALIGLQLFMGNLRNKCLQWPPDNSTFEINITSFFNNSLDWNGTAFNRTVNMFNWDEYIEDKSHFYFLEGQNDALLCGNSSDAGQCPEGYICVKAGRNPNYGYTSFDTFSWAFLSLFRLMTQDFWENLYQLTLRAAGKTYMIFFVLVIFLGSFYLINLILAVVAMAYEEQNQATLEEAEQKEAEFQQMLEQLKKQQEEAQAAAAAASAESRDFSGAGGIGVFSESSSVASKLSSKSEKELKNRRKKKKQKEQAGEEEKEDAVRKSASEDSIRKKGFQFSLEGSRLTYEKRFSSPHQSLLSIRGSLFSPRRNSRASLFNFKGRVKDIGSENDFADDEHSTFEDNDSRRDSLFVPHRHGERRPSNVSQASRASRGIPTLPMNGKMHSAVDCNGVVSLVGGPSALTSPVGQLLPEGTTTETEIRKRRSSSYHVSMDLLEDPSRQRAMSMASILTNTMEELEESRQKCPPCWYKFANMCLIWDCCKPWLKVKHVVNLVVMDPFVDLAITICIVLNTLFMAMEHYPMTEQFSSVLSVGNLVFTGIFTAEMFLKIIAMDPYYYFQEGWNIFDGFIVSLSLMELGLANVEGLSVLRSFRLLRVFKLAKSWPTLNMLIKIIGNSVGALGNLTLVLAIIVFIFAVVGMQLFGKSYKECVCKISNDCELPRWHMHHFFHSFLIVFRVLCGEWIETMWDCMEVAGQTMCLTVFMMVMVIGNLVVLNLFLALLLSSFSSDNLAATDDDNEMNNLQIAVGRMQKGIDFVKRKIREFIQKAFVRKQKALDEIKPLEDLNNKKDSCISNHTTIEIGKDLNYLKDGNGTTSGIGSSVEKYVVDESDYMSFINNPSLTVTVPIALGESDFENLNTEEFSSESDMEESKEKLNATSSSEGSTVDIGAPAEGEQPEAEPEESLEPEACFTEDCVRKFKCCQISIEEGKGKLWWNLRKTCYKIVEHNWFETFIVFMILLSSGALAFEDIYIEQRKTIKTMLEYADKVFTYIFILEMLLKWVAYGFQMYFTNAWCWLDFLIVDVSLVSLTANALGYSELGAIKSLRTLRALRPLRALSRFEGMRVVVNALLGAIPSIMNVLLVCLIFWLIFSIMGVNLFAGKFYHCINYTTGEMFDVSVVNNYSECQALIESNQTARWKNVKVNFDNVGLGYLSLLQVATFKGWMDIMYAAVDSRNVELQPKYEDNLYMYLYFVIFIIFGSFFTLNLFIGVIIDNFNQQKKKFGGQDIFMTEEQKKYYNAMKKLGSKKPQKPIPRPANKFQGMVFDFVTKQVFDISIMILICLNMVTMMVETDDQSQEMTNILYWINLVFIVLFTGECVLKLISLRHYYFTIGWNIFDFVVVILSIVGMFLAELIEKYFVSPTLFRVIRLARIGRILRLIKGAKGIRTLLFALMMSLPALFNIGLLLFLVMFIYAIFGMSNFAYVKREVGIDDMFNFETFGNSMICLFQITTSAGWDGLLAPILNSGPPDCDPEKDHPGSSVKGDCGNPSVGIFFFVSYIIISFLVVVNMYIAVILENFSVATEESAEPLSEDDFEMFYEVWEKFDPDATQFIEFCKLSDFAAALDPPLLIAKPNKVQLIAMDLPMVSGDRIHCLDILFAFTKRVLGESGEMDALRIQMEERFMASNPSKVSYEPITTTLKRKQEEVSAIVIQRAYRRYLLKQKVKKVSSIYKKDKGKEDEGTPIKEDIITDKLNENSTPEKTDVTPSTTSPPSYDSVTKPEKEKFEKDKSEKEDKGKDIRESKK
UniProt Q00975: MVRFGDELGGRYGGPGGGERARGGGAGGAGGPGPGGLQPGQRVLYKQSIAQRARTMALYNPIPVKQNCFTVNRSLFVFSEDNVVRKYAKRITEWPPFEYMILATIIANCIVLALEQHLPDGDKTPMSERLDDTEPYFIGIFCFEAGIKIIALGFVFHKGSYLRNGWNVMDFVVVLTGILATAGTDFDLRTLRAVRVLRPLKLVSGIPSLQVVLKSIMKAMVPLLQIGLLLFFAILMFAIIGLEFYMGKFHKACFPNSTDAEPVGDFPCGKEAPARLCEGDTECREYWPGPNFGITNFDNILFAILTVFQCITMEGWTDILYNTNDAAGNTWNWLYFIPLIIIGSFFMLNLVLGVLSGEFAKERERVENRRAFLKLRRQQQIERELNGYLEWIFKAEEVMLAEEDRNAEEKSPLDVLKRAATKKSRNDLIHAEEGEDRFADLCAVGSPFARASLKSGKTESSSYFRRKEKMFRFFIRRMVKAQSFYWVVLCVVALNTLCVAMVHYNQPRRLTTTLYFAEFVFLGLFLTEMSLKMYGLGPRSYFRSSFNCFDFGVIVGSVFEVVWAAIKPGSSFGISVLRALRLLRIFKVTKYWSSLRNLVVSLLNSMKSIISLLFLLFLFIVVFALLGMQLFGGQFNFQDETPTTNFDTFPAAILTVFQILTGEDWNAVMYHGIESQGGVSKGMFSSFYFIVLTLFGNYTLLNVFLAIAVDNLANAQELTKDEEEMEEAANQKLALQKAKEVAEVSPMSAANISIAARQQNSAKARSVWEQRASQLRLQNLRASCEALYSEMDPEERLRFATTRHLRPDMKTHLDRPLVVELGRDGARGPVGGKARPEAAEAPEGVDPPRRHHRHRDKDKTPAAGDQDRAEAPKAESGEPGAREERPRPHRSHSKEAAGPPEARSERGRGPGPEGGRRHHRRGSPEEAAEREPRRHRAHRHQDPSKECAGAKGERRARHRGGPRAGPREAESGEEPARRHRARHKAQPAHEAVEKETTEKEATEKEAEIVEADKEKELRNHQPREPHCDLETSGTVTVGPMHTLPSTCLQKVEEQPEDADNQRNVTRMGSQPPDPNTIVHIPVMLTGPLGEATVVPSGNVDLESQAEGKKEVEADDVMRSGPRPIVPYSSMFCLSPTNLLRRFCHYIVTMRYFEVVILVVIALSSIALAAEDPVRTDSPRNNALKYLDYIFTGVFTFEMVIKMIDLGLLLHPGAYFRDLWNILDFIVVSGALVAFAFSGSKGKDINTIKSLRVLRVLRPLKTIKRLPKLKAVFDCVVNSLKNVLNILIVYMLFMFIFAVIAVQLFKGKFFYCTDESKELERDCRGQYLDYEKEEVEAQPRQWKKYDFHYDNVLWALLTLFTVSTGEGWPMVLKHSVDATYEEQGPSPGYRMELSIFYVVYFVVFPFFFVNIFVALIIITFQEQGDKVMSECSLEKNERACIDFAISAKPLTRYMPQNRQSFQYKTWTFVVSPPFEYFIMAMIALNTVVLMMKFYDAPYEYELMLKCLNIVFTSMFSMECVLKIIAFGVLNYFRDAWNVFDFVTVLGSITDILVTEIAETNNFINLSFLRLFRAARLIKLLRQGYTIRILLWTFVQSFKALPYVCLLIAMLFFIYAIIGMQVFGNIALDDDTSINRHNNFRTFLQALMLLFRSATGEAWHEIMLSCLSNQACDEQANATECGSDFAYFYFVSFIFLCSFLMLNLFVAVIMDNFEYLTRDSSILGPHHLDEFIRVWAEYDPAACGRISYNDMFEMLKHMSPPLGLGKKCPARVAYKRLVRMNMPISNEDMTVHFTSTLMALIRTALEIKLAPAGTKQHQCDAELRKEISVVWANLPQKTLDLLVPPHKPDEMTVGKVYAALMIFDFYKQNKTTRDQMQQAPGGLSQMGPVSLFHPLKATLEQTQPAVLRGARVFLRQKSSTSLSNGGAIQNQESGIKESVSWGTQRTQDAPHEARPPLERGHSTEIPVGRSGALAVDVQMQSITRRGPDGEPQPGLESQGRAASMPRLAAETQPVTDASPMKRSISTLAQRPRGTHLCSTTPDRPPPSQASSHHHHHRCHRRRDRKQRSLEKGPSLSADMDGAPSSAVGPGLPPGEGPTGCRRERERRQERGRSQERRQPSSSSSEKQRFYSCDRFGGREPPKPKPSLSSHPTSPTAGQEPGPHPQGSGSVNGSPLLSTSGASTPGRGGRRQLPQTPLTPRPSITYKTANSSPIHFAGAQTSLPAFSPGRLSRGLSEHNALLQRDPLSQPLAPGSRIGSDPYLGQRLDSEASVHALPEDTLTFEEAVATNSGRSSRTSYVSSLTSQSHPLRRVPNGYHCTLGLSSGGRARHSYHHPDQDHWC

Experiments:
Conditions in all cases: soluble toxin; cited from earlier work
α7nAChR = α7nAChR (Homo sapiens, UniProt P36544)
Nav1.2 = Nav1.2 (Rattus norvegicus, UniProt P04775)
Cav2.2 = Cav2.2 (Homo sapiens, UniProt Q00975)

Substance: α-conotoxin PnlB
- Affinity (α7nAChR): 61.3 nM

Substance: μ-o-conotoxin MrVIA
- Affinity (Nav1.2): 200 nM

Substance: ω-conotoxin MVIIA
- Affinity (Cav2.2): 1 nM
